Share of PSTVd loop 15 variants by leaf site

Region: loop 15 of PSTVd (intermediate strain), upper and lower strand joined, each 5' to 3', the first 7 letters being the upper strand, closing pairs included. Wild type: GGAAACCGCUACUAC. Varied positions (N): GGAAACCGNNNNNNC.

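Three N. benthamiana plants were inoculated with the whole mutant pool. Progeny were sequenced from the inoculated region (day 5), the margin of the inoculated leaf (day 10) and systemic leaves (day 12).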

Values are reads per thousand in the sample; higher means more abundant, 0 means not found.
Each value is the mean of three plants.
"Pool" is the share in the plasmid pool used as inoculum, on the same scale.
The inoculated region was read from the minus strand, the other sites from the plus strand.

| sequence | pool | inoculated region | leaf margin | systemic leaves |
|---|---|---|---|---|
| GGAAACCGAAAGGUC | 0.256 | 0.262 | 0.121 | 0.0322 |
| GGAAACCGAACGCGC | 0.336 | 0.0802 | 0 | 0 |
| GGAAACCGACAAUUC | 0.272 | 0.229 | 0.0700 | 0.0455 |
| GGAAACCGACACAAC | 0.160 | 0.355 | 0.117 | 0.0107 |
| GGAAACCGACACCUC | 0.240 | 0.306 | 0.00539 | 0.0107 |
| GGAAACCGACACUAC | 0.192 | 0.551 | 0.0739 | 0.0638 |
| GGAAACCGACAGGUC | 0.224 | 0.270 | 0.0900 | 0.0211 |
| GGAAACCGACAUAAC | 0.144 | 0.460 | 0.0967 | 0.0268 |
| GGAAACCGACCCGUC | 0.288 | 0.102 | 0.0121 | 0 |
| GGAAACCGAGAGCUC | 0.160 | 0.144 | 0.00742 | 0 |
| GGAAACCGAGAGGCC | 0.256 | 0.0524 | 0.00668 | 0 |
| GGAAACCGAGGUCUC | 0.272 | 0.184 | 0.0141 | 0.0107 |
| GGAAACCGAUCUCCC | 0.288 | 0.0813 | 0.0254 | 0 |
| GGAAACCGAUGCAGC | 0.240 | 0.0724 | 0.00668 | 0 |
| GGAAACCGAUGUUGC | 0.208 | 0.102 | 0 | 0 |
| GGAAACCGAUUAGCC | 0.224 | 0.111 | 0.00668 | 0.00760 |
| GGAAACCGAUUCCAC | 0.288 | 0.0815 | 0.0390 | 0 |
| GGAAACCGAUUGUUC | 0.224 | 0.351 | 0.118 | 0.0847 |
| GGAAACCGCAAGGUC | 0.208 | 0.315 | 0.0477 | 0.0104 |
| GGAAACCGCAAUGUC | 0.208 | 0.107 | 0.00539 | 0 |
| GGAAACCGCACCGUC | 0.240 | 0.0614 | 0.0182 | 0 |
| GGAAACCGCCAUACC | 0.128 | 0.108 | 0.0208 | 0.0130 |
| GGAAACCGCCCAGUC | 0.224 | 0.0857 | 0.0141 | 0 |
| GGAAACCGCCCUCGC | 0.208 | 0.0806 | 0.0195 | 0 |
| GGAAACCGCCGGUAC | 0.208 | 0.335 | 0.132 | 0.0505 |
| GGAAACCGCCGUACC | 0.160 | 0.0976 | 0.00668 | 0 |
| GGAAACCGCCGUUUC | 0.272 | 0.340 | 0.138 | 0.0161 |
| GGAAACCGCGAAAAC | 0.272 | 0.365 | 0.130 | 0.0695 |
| GGAAACCGCGAAGCC | 0.208 | 0.110 | 0 | 0 |
| GGAAACCGCGCACCC | 0.288 | 0.0741 | 0.0134 | 0 |
| GGAAACCGCGCGACC | 0.208 | 0.147 | 0.0262 | 0 |
| GGAAACCGCGCGAGC | 0.272 | 0.390 | 0.0223 | 0.0158 |
| GGAAACCGCGGCGGC | 0.0960 | 0.0738 | 0.00539 | 0.00537 |
| GGAAACCGCGUCACC | 0.176 | 0.121 | 0.0175 | 0 |
| GGAAACCGCUCGCCC | 0.192 | 0.0768 | 0.00539 | 0.00760 |
| GGAAACCGCUCGGCC | 0.192 | 0.0893 | 0.0187 | 0 |
| GGAAACCGGAAGAUC | 0.160 | 0.123 | 0.00668 | 0 |
| GGAAACCGGACCAGC | 0.432 | 0.112 | 0.0208 | 0 |
| GGAAACCGGAGAAAC | 0.160 | 0.0911 | 0.0275 | 0 |
| GGAAACCGGAUGGCC | 0.112 | 0.0569 | 0.00668 | 0 |
| GGAAACCGGCAGGCC | 0.224 | 0.114 | 0.0128 | 0 |
| GGAAACCGGCCAACC | 0.160 | 0.0441 | 0.0195 | 0 |
| GGAAACCGGCCGGGC | 0.176 | 0.101 | 0 | 0 |
| GGAAACCGGCGGCAC | 0.336 | 0.0678 | 0.0134 | 0 |
| GGAAACCGGCUAGAC | 0.208 | 0.113 | 0 | 0 |
| GGAAACCGGCUGGAC | 0.176 | 0.122 | 0.0187 | 0 |
| GGAAACCGGGACGAC | 0.144 | 0.0751 | 0.0128 | 0.00537 |
| GGAAACCGGGAUAUC | 0.144 | 0.0913 | 0.0195 | 0 |
| GGAAACCGGGUAUCC | 0.256 | 0.0783 | 0.0208 | 0 |
| GGAAACCGGGUGAUC | 0.176 | 0.0903 | 0 | 0 |
| GGAAACCGGUAUAGC | 0.192 | 0.0847 | 0.00539 | 0 |
| GGAAACCGGUGAGCC | 0.160 | 0.0922 | 0.0200 | 0 |
| GGAAACCGGUGCUCC | 0.352 | 0.0460 | 0.0202 | 0 |
| GGAAACCGUAACAAC | 0.224 | 0.418 | 0.0854 | 0.0512 |
| GGAAACCGUACACAC | 0.272 | 0.100 | 0 | 0.00537 |
| GGAAACCGUACCCAC | 0.192 | 0.0919 | 0.0134 | 0 |
| GGAAACCGUACGUGC | 0.144 | 0.305 | 0.0616 | 0.0691 |
| GGAAACCGUAGUACC | 0.256 | 0.0962 | 0.0148 | 0 |
| GGAAACCGUCACAGC | 0.288 | 0.0685 | 0.00668 | 0 |
| GGAAACCGUCGUUUC | 0.208 | 0.0615 | 0.0121 | 0 |
| GGAAACCGUCUUGGC | 0.176 | 0.155 | 0.00742 | 0 |
| GGAAACCGUGAUCCC | 0.336 | 0.129 | 0.0108 | 0 |
| GGAAACCGUUAGAUC | 0.272 | 0.386 | 0.0754 | 0.0969 |
| GGAAACCGUUAUCGC | 0.352 | 0.341 | 0.147 | 0.00537 |

A selection of 5 entries from above:

sequence,pool,inoculated region,leaf margin,systemic leaves
GGAAACCGAACGCGC,0.336,0.0802,0,0
GGAAACCGGCUAGAC,0.208,0.113,0,0
GGAAACCGUACGUGC,0.144,0.305,0.0616,0.0691
GGAAACCGAUGCAGC,0.240,0.0724,0.00668,0
GGAAACCGUAACAAC,0.224,0.418,0.0854,0.0512

For reference, wild type rose from 33.9 per thousand in the pool to 202, 200, 159 (inoculated region), 724, 746, 710 (leaf margin) and 856, 883, 880 (systemic leaves).
The authors trace changes outside the varied positions to PCR and sequencing errors or to mutation in the plant; presence does not show that a variant is infectious alone.
Samples held 43,870 to 66,106 reads, so the smallest values rest on one or two reads.

The measurements come from Wu et al. 2024 (doi:10.1371/journal.ppat.1012142).